PubChem BioAssay AID1259414 – Drosophila RNAi Screening Center – 2018

Test: 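Genome-wide screen for host control of endosymbiont load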 (primary screen)
System: Drosophila JW18 cells infected with Wolbachia
Reagents: long dsRNA against Drosophila genes, 0.25 µg dsRNA per well of a 384-well plate
Time to read-out: 5 days
Treatment: cells persistently infected with Wolbachia before knock-down; no added drug
Read-out: 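Imaged fluorescence in situ signal for Wolbachia 23S rRNA per DAPI-counted host cell, given as a robust z-score within each plate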
Direction: Wolbachia per cell robust z: higher = more Wolbachia per host cell than the plate typical
Rule for the call: 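Hit when robust z is 1.5 or more, or -1.5 or less, in at least two of three replicates; excludes dsRNAs with several or no targets, genes not expressed in JW18 and well A1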
The screen tested about 24,000 reagents; shown is a random part of those that have a named target and a result. Of all reagents, about 1,210 (5%) got an active call. 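Inactive calls also include excluded dsRNAs with several or no targets, genes unexpressed in JW18, and well A1, regardless of score.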 Reagents against one gene are numbered here. Names joined by + are all predicted targets of the reagent.

predicted target	reagent no.	Wolbachia per cell robust z, rep 1	Wolbachia per cell robust z, rep 2	Wolbachia per cell robust z, rep 3	Outcome
Shark	1	1.4	0.671	1.21	inactive
Shark	2	0.646	0.966	1.66	inactive
Pka-C1	1	0.322	-1	0.501	inactive
Pka-C1	2	0.39	-0.106	-0.116	inactive
Pka-C1	3	-2.06	-0.205	-0.321	inactive
CG9837	1	0.895	1.35	0.663	inactive
CG9837	2	-1.17	-0.252	-0.915	inactive
CG9459	1	-3.42	0.94	1.19	inactive
Or19a + Or19b	1	0.699	0.58	0.805	inactive
Gorab	1	-0.943	-0.257	1.47	inactive
Gorab	2	-0.862	0.408	-1.79	inactive
pigs	1	-0.0751	0.546	-0.626	inactive
pigs	2	-0.245	0.427	-0.326	inactive
pigs	3	-0.6	0.651	0.35	inactive
eIF3f2	1	-0.792	-0.598	0.0656	inactive
Mi-2	1	3.6	3.88	3.05	active
Mi-2	2	0.599	1.45	1.25	inactive
Gpo1	1	-0.117	0.976	0.237	inactive
CG4730	1	0.274	-0.18	1.3	inactive
CG4730	2	-0.797	-0.838	-1.44	inactive
eg	1	0.618	0.0738	-7.53	inactive
eg	2	-1.55	-1.49	-1.08	inactive
CG5068	1	0.453	-0.996	0.608	inactive
Pbp49 + CG42516	1	-0.34	-2.01	-3.63	inactive
pix	1	0.843	-0.574	1.9	inactive
Fit1	1	2.31	2.37	1.35	active
Fit1	2	1.81	0.775	0.113	inactive
CG32687	1	-2.55	0.527	0.236	inactive
CG32687	2	-5.28	0.0147	0.237	inactive
O-fut1	1	-1.04	-0.313	1.01	inactive
O-fut1	2	-2.06	-0.57	-0.805	inactive
mRpS5	1	0.851	1.32	1.47	inactive
CG4393	1	-0.201	0.114	-4.43	inactive
SIFaR	1	0.0604	0.306	0.448	inactive
SIFaR	2	0.803	1.25	0.763	inactive
Octbeta2R	1	-0.977	-0.507	-0.554	inactive
Octbeta2R	2	0.562	0.328	-0.256	inactive
Octbeta2R	3	-0.784	0.395	-2.11	inactive
Octbeta2R	4	-0.404	-5.93	-0.638	inactive
Octbeta2R	5	0.179	-0.454	-0.855	inactive
CG34303	1	0.106	1.48	-0.242	inactive
CG5021	1	-1.68	-1.4	-0.271	inactive
CG42263	1	0.63	-0.719	-0.349	inactive
rec	1	0.276	1.18	2.08	inactive
rec	2	-0.586	0.952	0.434	inactive
CG8042	1	-6.99	-4.75	0.437	active
CG8042	2	0.978	0.882	-0.431	inactive
Fmo-1	1	0.448	0.0957	-2.28	inactive
Fmo-1	2	-2.97	-0.618	-2.57	inactive
CG13693	1	0.345	0.909	1.09	inactive
CG13693	2	0.685	0.581	-0.0478	inactive
fwd	1	1.42	1.04	0.655	inactive
fwd	2	1.94	-0.215	1.05	inactive
CG31262	1	0.104	-0.619	0.729	inactive
Vm26Ab	1	-4.54	-4.19	-3.54	inactive
Vm26Ab	2	-1.19	-0.12	-1.28	inactive
Pkcdelta	1	0.678	0.65	0.318	inactive
Pkcdelta	2	-0.453	0.309	-0.0513	inactive
Pkcdelta	3	-0.58	0.941	1.71	inactive
Sgs8	1	-0.926	-0.451	-4.62	inactive
Vajk1	1	-0.0332	0.032	-0.913	inactive
Vajk1	2	-0.513	0.811	-0.034	inactive
CG31717	1	-1.27	-1.41	-0.902	inactive
CG31717	2	1.1	-1.57	0.118	inactive
Cdc42	1	0.784	0.773	1.77	inactive
Cdc42	2	1.49	1.42	2.4	inactive
CG3587	1	-2.52	-5.2	-3.25	active
CG3587	2	-1.71	-2.27	-0.748	active

Targets above whose gene name starts with E or e:
predicted target	reagent no.	Wolbachia per cell robust z, rep 1	Wolbachia per cell robust z, rep 2	Wolbachia per cell robust z, rep 3	Outcome
eIF3f2	1	-0.792	-0.598	0.0656	inactive
eg	1	0.618	0.0738	-7.53	inactive
eg	2	-1.55	-1.49	-1.08	inactive
